Source: ChEMBL document CHEMBL1828562, “Aryl H-phosphonates 17: (N-aryl)phosphoramidates of pyrimidine nucleoside analogues and their synthesis, selected properties, and anti-HIV activity” (J Med Chem, 2011)

Assays:
[1] = test system: Human immunodeficiency virus 1; experiment: Antiviral activity against HIV1 infected in human CEM-T4 cells assessed as reduction in viral protein p24 production preincubated for 24 hrs measured after 8 days by MTT assay; settings: for EC50: cem-t4
[2] = Selectivity index, ratio of CC50 for human CEM-T4 cells to EC50 for HIV1 infected human CEM-T4 cells

O=c1ccn([C@H]2CC[C@@H](COP(=O)(O)Nc3ccccn3)O2)c(=O)[nH]1
EC90 [1]: > 10000 nM | EC50 [1]: > 10000 nM | Ratio CC50/EC50 [2]: < 3

Cc1cn([C@H]2C[C@H](N=[N+]=[N-])[C@@H](COP(=O)(O)Nc3ccccn3)O2)c(=O)[nH]c1=O
EC90 [1]: 29 nM | EC50 [1]: 2.4 nM | Ratio CC50/EC50 [2]: > 83500
